Source: paper PMC6277555, “Short Symmetric-End Antimicrobial Peptides Centered on β-Turn Amino Acids Unit Improve Selectivity and Stability” (Frontiers in Microbiology, 2018)
Residues, ends and D or L forms follow the SMILES beside them. No end group written: not given here.

Test: Circular dichroism, secondary structure content
Assay type: physicochemical
Details: CD, 25°C, content by K2D2
[1] = 10 mM PBS pH 7.4, 150 μM peptide

Row | Compound | α-helix [1] [%] | β-strand [1] [%] | α-helix (30 mM SDS, 150 μM peptide) [%] | β-strand (30 mM SDS, 150 μM peptide) [%] | α-helix (50% TFE, 150 μM peptide) [%] | β-strand (50% TFE, 150 μM peptide) [%]
1 | CC[C@H](C)[C@H](N)C(=O)N[C@@H](Cc1c[nH]cn1)C(=O)N[C@@H](CCCCN)C(=O)N[C@@H](Cc1ccccc1)C(=O)N[C@@H](Cc1c[nH]c2ccccc12)C(=O)N[C@@H](CCCNC(=N)N)C(=O)N[C@@H](CS)C(=O)N[C@@H](CCCNC(=N)N)C(=O)N[C@@H](CCCNC(=N)N)C(=O)N[C@@H](CCCNC(=N)N)C(=O)N[C@@H](Cc1ccccc1)C(=O)N[C@@H](CS)C(=O)N[C@@H](CCCNC(=N)N)C(=O)N[C@@H](Cc1c[nH]c2ccccc12)C(=O)N[C@@H](Cc1ccccc1)C(=O)N[C@@H](CCCCN)C(=O)N[C@@H](Cc1c[nH]cn1)C(=O)N[C@H](C(N)=O)[C@@H](C)CC [PQ] (H-IHKFWRCRRRFCRWFKHI-NH2; N-terminus assumed) | 26.91 | 11.16 | 32.02 | 6.15 | 36.82 | 4.28
2 | IHKFWRGGRWFKHI-NH2 [GG] | 1.49 | 32.19 | 11.99 | 9.42 | 18.98 | 11.53
